# Laboratory results as given in ChEMBL document CHEMBL4425082, “Antimalarial Chemotherapy: Natural Product Inspired Development of Preclinical and Clinical Candidates with Diverse Mechanisms of Action” (J Med Chem, 2016).
# System: Plasmodium falciparum
# Assay: Antimalarial activity against chloroquine-resistant Plasmodium falciparum K1 after 24 hrs in presence of hypoxanthine
structure (smiles),measurement,value
C1CCC2(CC1)OOC1(CCCCC1)OO2,IC50,25 nM
